A mixed list of measured activities; the numbers were collected in NIAID ChemDB.

Shared fields: growth or infection tests; agent: Staphylococcus aureus; measure: MIC90

a–b is a range or a potency band.

SMILES | strain or isolate | value
COc1c(N2C[C@@H]3CCCN[C@@H]3C2)c(F)cc2c(=O)c(C(=O)O)cn(C3CC3)c12 | 224 isolates (methicillin-resistant) | 3.73 µg/mL
CC[C@H]1OC(=O)[C@H](C)C(=O)[C@H](C)[C@@H](O[C@@H]2O[C@H](C)C[C@H](N(C)C)[C@H]2O)[C@](C)(OC)C[C@@H](C)C(=O)[C@H](C)[C@H]2N(CCCCn3cnc(-c4cccnc4)c3)C(=O)O[C@]12C | 25 strains | >64 µg/mL
COc1c(N2CCNC(C)C2)c(F)cc2c(=O)c(C(=O)O)cn(C3CC3)c12 | 30 strains (methicillin-resistant) | 0.2 µg/mL
CC[C@H]1OC(=O)[C@H](C)C(=O)[C@H](C)[C@@H](O[C@@H]2O[C@H](C)C[C@H](N(C)C)[C@H]2O)[C@](C)(OC)C[C@@H](C)C(=O)[C@H](C)[C@H]2N(CCCCn3cnc(-c4cccnc4)c3)C(=O)O[C@]12C | 25 strains | >64 µg/mL
CC[C@H]1OC(=O)[C@H](C)C(=O)[C@H](C)[C@@H](O[C@@H]2O[C@H](C)C[C@H](N(C)C)[C@H]2O)[C@](C)(OC)C[C@@H](C)C(=O)[C@H](C)[C@H]2N(CCCCn3cnc(-c4cccnc4)c3)C(=O)O[C@]12C | 25 strains | 8 µg/mL
Cc1c(N)c(F)cc2c(=O)c(C(=O)O)cn(-c3cc(N)c(F)cc3F)c12 | 27 isolates | 0.015 µg/mL
C[C@H]1COc2c(N3CCN(C)CC3)c(F)cc3c(=O)c(C(=O)O)cn1c23 | Methicillin-susceptible | 0.25–0.5 µg/mL
CNc1c(F)cc2c(=O)c(C(=O)O)cn(-c3cc(N)c(F)cc3F)c2c1C | 27 isolates (methicillin-resistant) | 0.015 µg/mL
CN(C)CC(=O)Nc1ccc2c(c1O)C(O)=C1C(=O)[C@]3(O)C(O)=C(C(N)=O)C(=O)[C@@H](N(C)C)[C@@H]3C[C@@H]1C2 | Oxacillin-resistant | 0.5 µg/mL
CC(C)(C)n1cc(C(=O)O)c(=O)c2cc(F)c(N3C[C@H]4C[C@@H]3CN4)nc21 | 44 strains (methicillin-resistant) | 0.5 µg/mL
C[C@H]1COc2c(N3CCN(C)CC3)c(F)cc3c(=O)c(C(=O)O)cn1c23 | 46 isolates (methicillin-resistant) | 0.5 µg/mL
CO/N=C1\CN(c2nc3c(cc2F)c(=O)c(C(=O)O)cn3C2CC2)CC1CN | 38 isolates (methicillin-resistant) | 32 µg/mL
CCCC[C@H](CC(=O)NO)C(=O)N1CCC[C@H]1C(=O)OC(C)(C)C | 25 strains | 2 µg/mL
COc1c(N2CCNC(C)C2)c(F)cc2c(=O)c(C(=O)O)cn(C3CC3)c12 | methicillin sensitive (68 strains) | 0.12 µg/mL
CC(C)(C)n1cc(C(=O)O)c(=O)c2cc(F)c(N3C[C@H]4C[C@@H]3CN4)nc21 | 30 strains (methicillin-resistant) | 0.5 µg/mL

For reference, 2 entries again:

SMILES	strain or isolate	value
CC[C@H]1OC(=O)[C@H](C)C(=O)[C@H](C)[C@@H](O[C@@H]2O[C@H](C)C[C@H](N(C)C)[C@H]2O)[C@](C)(OC)C[C@@H](C)C(=O)[C@H](C)[C@H]2N(CCCCn3cnc(-c4cccnc4)c3)C(=O)O[C@]12C	25 strains	>64 µg/mL
CC(C)(C)n1cc(C(=O)O)c(=O)c2cc(F)c(N3C[C@H]4C[C@@H]3CN4)nc21	30 strains (methicillin-resistant)	0.5 µg/mL

MIC50, MIC90 and the like: level of inhibition, or share of isolates inhibited. Conditions beyond the fields shown may differ between rows.